Source: PMC9863266, “Preclinical Studies and Drug Combination of Low-Cost Molecules for Chagas Disease” (Pharmaceuticals, 2022)

Tests used:
Type in all cases: cell-based
[1] = tested on: epimastigote form of T. cruzi, Tulahuen 2 strain; test: Mechanism of death by flow cytometry, AV/IP labeling; details: 20 × IC50
Method: Parasites were immediately analyzed on an Accuri C6 flow cytometer (BD Bioscience, Franklin Lakes, New Jersey, U.S.). […] Ten thousand events were analyzed for each of the two independent experiments. Data were analyzed using BD CSampler software (BD Bioscience). Untreated parasites were used as a control. For the positive control of apoptosis and necrosis, the parasites were treated with hydrogen peroxide (H2O2) 50 µM and 100 µM for 2.5 h, respectively. These single-spot controls were used to calculate color compensation for flow cytometry.

[2] = tested on: Y strain of T. cruzi in the epimastigote form; test: Mechanism of death by 1H-NMR; details: for CH2/CH3 Ratio: 10 times IC50, control 0.27
[3] = tested on: epimastigote form of T. cruzi, Tulahuen 2 strain; test: Viability by flow cytometry, CA-AM/IP labeling; details: 20 × IC50
Method: Additionally, we evaluated the viability of treated parasites by flow cytometry analysis after incubation with methylated acetoxycalcein (CA-AM) and propidium iodide (IP). […] Since the methodology used to determine the IC50 is based on 5 days of incubation, doses 20 times higher were used to analyze cell viability in shorter times. Similarly, these compounds’ concentrations were used to determine the death mechanism involved at the aforementioned times.
Viability studies of parasites by flow cytometry: The feasibility studies were carried out by evaluating the esterase activity of the parasites using Acetoxymethylated Calcein (CA-AM) and IP (Thermo Fisher Scientific). […] Fluorescence intensity for 10,000 events was acquired from two independent experiments and data were analyzed using BD CSampler software (BD Bioscience).

| SMILES | Cell death mechanism from AV/IP labeling [1] | CH2/CH3 Ratio [2] | Mechanism of death suggested by 1H-NMR [2] | Cell death mechanism from CA-AM/IP labeling [3] |
| --- | --- | --- | --- | --- |
| O=C(Cn1ccnc1[N+](=O)[O-])NCc1ccccc1 [Bnz, Benznidazole] | no apoptosis, late apoptosis, or necrosis was observed | 0.50 | – | – |
| O=C(/C=C/C=C/c1ccco1)/C=C/C=C/c1ccco1 [Compound 793] | late apoptosis | 3.00 * | apoptosis and late necrosis | late apoptosis/necrosis mechanism |

Marks after values point to notes of the source that are not given here.
